The data set deals with Lsr2BD (Mycobacterium tuberculosis H37Rv) (UniProt P9WIP7). Nature of the data set: fluorescence anisotropy. (Polarisation of emitted light reports the rotation of a fluorescent probe.)

Construct, isoform or probe ends are uncertain for at least one entry.

Usually Kd stands for the constant that tells how readily two partners part at equilibrium. The low end stands for a tighter complex, the high end for a looser complex. The sequence “AATTCGGCAAAATCGGTAAG (double strand) [leuS site, Alexa 488]” came in with a Kd of 400 nM.

(Values after doi:10.1101/571406.)
